Eight molecules from patent US10059741B2 (priority 2015, dated 2018) can be followed below.

Where “and” joins values, the source holds several entries; their conditions need not be identical. Identical values can stand only once. Like-named read-outs stand apart in the source and are kept apart here. Bridge positions count the residues as written; N and C are the ends. Square brackets hold non-standard residues; d marks the D form. Peptide text beside a SMILES is read from it. R8 = C=CCCCCCC[C@@](C)(N)C(=O)O; S5 = C=CCCC[C@](C)(N)C(=O)O; Nle = CCCC[C@H](N)C(=O)O; Aib = CC(C)(N)C(=O)O

Holding throughout (parameters): unit not given beside the values
The test system of one series is H5N1 A/Duck/MN/1525/81. The format is cell-based, influenza A virus.
For series [1], the system named is Influenza A H1N1 Influenza A/California/7/2009. The format is cell-based, influenza A virus.
Series [2] concerns Influenza B Brisbane/60/2008. As to the kind of experiment: Cytopathic effect (CPE) inhibition in MDCK cells, neutral red. The format is cell-based. (Damage to the host cells serves as the signal in cytopathic effect assays.)
The test system of series [3] is Influenza B/Brisbane/60/2008. The format is cell-based.
The test system of series [4] is Influenza B Florida/04/2006. As to the kind of experiment: Cytopathic effect (CPE) inhibition in MDCK cells, neutral red. Type of series: cell-based.
The test system of series [5] is H1N1 A/Solomon Island/03/2006. Type of series: cell-based, influenza A virus.
In series [6] the test system is influenza virus, various viral strains. The format is cell-based.
The test system of the next series is H7N9 A/Anhui/1/2013. Type of series: cell-based, influenza A virus.
In series [7] the test system is Influenza A H3N2 Influenza A/Brisbane/10/2007. Type of series: cell-based, influenza A virus.
The test system of series [8] is influenza virus, various viral strains. The series is described as follows: Influenza antiviral evaluation assay (CPE, neutral red dye uptake) in MDCK cells against various viral strains (Tables 8, 9). The format is cell-based.
Where [9] appears, read: SI50=CC50/EC50, H1N1 A/Solomon Is./3/2006-M, Neutral Red.

With `CCCC[C@H](NC(C)=O)C(=O)N[C@@H](CC(=O)O)C(=O)N[C@H](C(=O)N[C@@H](CC(N)=O)C(=O)N[C@@]1(C)CCCC=CCCC[C@@](C)(C(=O)N[C@@H](CC(C)C)C(=O)N[C@@H](CCCCN)C(=O)N[C@H](C(=O)NC(C)(C)C(=O)N[C@@H](C)C(=O)N[C@@H](CCC(N)=O)C(N)=O)C(C)C)NC(=O)[C@H](CC(C)C)NC(=O)[C@H](CC(C)C)NC(=O)[C@H]([C@@H](C)O)NC1=O)C(C)C` [AP1, Ac-NleDVN$TLL$LKVAibAQ-NH2] (Ac-[Nle]DVN[S5]TLL[S5]LKV[Aib]AQ-NH2; staple 5-9), the SI50 is above 16 in the series with H5N1 A/Duck/MN/1525/81; 1 in series [1]; above 14 in series [2]; 1 in series [3]; 7.8 in series [4]; >33 and >56 in series [5]. Besides, the SI50 came to 0 in the series on H7N9 A/Anhui/1/2013 and 1 in [7]. Further, the SI90 in series [1], in series [3], in [6] and in series [7] was 1 each time.
Consider `NC(=O)c1ncn([C@@H]2O[C@H](CO)[C@@H](O)[C@H]2O)n1` [Ribavirin, reference compound], for which the SI50 was >33 and >57 in the series on H5N1 A/Duck/MN/1525/81; above 15 in series [1]; >33 and >34 and >36 in series [8]; above 57 in series [2]; above 2 in [3]; above 67 in series [4]. This molecule also displayed an SI50 in series [7] above 36. For the same molecule, the SI90 in series [1] is on record as above 6; in [3], 1; in series [7], above 8.
On to `CCCC[C@H](NC(C)=O)C(=O)N[C@@H](CC(=O)O)C(=O)N[C@H](C(=O)N[C@@H](CC(N)=O)C(=O)N[C@@]1(C)CCCC=CCCC[C@@](C)(C(=O)N[C@@H](CC(C)C)C(=O)N[C@@H](C)C(=O)N[C@H](C(=O)NC(C)(C)C(=O)N[C@@H](C)C(=O)N[C@@H](CCC(N)=O)C(N)=O)C(C)C)NC(=O)[C@H](CC(C)C)NC(=O)[C@H](CC(C)C)NC(=O)[C@H]([C@@H](C)O)NC1=O)C(C)C` [SP-6] (Ac-[Nle]DVN[S5]TLL[S5]LAV[Aib]AQ-NH2; staple 5-9), for which the SI50 in series [1] is 1; in series [2], above 14; in series [3], 1; in series [4], 5.4; in series [6], 1; in the series with H7N9 A/Anhui/1/2013, 0. The SI50 in series [7] was determined as 1. Also, the SI90 is 1 in series [1]; 1 in series [3]; 1 and >1.5 in [6]; 1 in [7].
Consider `CCCC[C@H](NC(C)=O)C(=O)N[C@@H](CC(=O)O)C(=O)N[C@H](C(=O)N[C@@H](CC(N)=O)C(=O)N[C@]1(C)CCCCCCC=CCCC[C@@](C)(C(=O)N[C@@H](C)C(=O)N[C@@H](C)C(=O)N[C@@H](CCC(N)=O)C(N)=O)NC(=O)[C@H](C)NC(=O)[C@H](CC(C)C)NC(=O)[C@H](Cc2ccccc2)NC(=O)[C@H](CC(C)C)NC(=O)[C@H](CC(C)C)NC(=O)[C@H]([C@@H](C)O)NC1=O)C(C)C` [SP-18] (Ac-[Nle]DVN[R8]TLLFLA[S5]AAQ-NH2; staple 5-12), for which the SI50 in [5] (setting [9]) is on record as above 3.4; in the series on H7N9 A/Anhui/1/2013 it was 0. Besides, the SI90 is given as above 16 in series [6] (Influenza A H1N1 California/07/2009, VYR/Neutral Red) and 0 in series [6] (Influenza A H3N2 Perth/16/2009, VYR/Neutral Red).
Take `CCCC[C@H](NC(C)=O)C(=O)N[C@@H](CC(=O)O)C(=O)N[C@H](C(=O)N[C@@H](CC(N)=O)C(=O)N[C@@]1(C)CCCC=CCCC[C@@](C)(C(=O)N[C@@H](CC(C)C)C(=O)N[C@@H](C)C(=O)N[C@H](C(=O)N[C@@H](CCC(N)=O)C(=O)NC(C)(C)C(=O)N[C@@H](C)C(=O)N[C@@H](C)C(=O)N[C@@H](C)C(N)=O)C(C)C)NC(=O)[C@H](CC(C)C)NC(=O)[C@H](CC(C)C)NC(=O)[C@H]([C@@H](C)O)NC1=O)C(C)C` [SP-21] (Ac-[Nle]DVN[S5]TLL[S5]LAVQ[Aib]AAA-NH2; staple 5-9): the SI50 in series [5] (setting [9]) is reported as above 19; in the series with H7N9 A/Anhui/1/2013 it was above 2.9.
As for `CCCC[C@H](NC(C)=O)C(=O)N[C@@H](CC(=O)O)C(=O)N[C@H](C(=O)N[C@@H](CC(N)=O)C(=O)N[C@@]1(C)CCCC=CCCC[C@@](C)(C(=O)N[C@@H](CC(C)C)C(=O)N[C@@H](C)C(=O)N[C@H](C(=O)N[C@@H](CCC(N)=O)C(=O)N[C@@H](C)C(=O)N[C@@H](C)C(=O)NC(C)(C)C(=O)N[C@@H](C)C(N)=O)C(C)C)NC(=O)[C@H](CC(C)C)NC(=O)[C@H](CC(C)C)NC(=O)[C@H]([C@@H](C)O)NC1=O)C(C)C` [SP-22] (Ac-[Nle]DVN[S5]TLL[S5]LAVQAA[Aib]A-NH2; staple 5-9), the SI50 in [5] is above 3.4; in the series with H7N9 A/Anhui/1/2013 it was above 3.8.
As for `CCCC[C@H](NC(C)=O)C(=O)N[C@@H](CC(=O)O)C(=O)N[C@H](C(=O)N[C@@H](CC(N)=O)C(=O)N[C@]1(C)CCCCCCC=CCCC[C@@](C)(C(=O)N[C@@H](C)C(=O)N[C@@H](C)C(=O)N[C@@H](C)C(=O)N[C@@H](C)C(=O)N[C@@H](C)C(N)=O)NC(=O)[C@H](C)NC(=O)[C@H](CC(C)C)NC(=O)[C@H](Cc2ccccc2)NC(=O)[C@H](CC(C)C)NC(=O)[C@H](CC(C)C)NC(=O)[C@H]([C@@H](C)O)NC1=O)C(C)C` [SP-25] (Ac-[Nle]DVN[R8]TLLFLA[S5]AAAAA-NH2; staple 5-12), the SI50 is above 15 in [5] (setting [9]) and above 1.5 in the series with H7N9 A/Anhui/1/2013.
For the molecule `CCCC[C@H](NC(C)=O)C(=O)N[C@@H](CC(=O)O)C(=O)N[C@H](C(=O)N[C@@H](CC(N)=O)C(=O)N[C@]1(C)CCCCCCC=CCCC[C@@](C)(C(=O)N[C@@H](CCC(N)=O)C(=O)N[C@@H](C)C(=O)N[C@@H](C)C(=O)N[C@@H](C)C(=O)N[C@@H](C)C(N)=O)NC(=O)[C@H](C)NC(=O)[C@H](CC(C)C)NC(=O)[C@H](Cc2ccccc2)NC(=O)[C@H](CC(C)C)NC(=O)[C@H](CC(C)C)NC(=O)[C@H]([C@@H](C)O)NC1=O)C(C)C` [SP-27] (Ac-[Nle]DVN[R8]TLLFLA[S5]QAAAA-NH2; staple 5-12), the SI50 in series [5] (setting [9]) is reported as above 1.3; in the series with H7N9 A/Anhui/1/2013, above 5.2.
